Results from PMC5431781, “Structural studies of the periplasmic portion of the diguanylate cyclase CdgH from Vibrio cholerae” (Scientific Reports, 2017).

Chains of the proteins cited; added tags and fusions are not shown. Residues count along the entry.
UniProt Q9KT38, 46-491 E122A/E56A/R109A limits assumed: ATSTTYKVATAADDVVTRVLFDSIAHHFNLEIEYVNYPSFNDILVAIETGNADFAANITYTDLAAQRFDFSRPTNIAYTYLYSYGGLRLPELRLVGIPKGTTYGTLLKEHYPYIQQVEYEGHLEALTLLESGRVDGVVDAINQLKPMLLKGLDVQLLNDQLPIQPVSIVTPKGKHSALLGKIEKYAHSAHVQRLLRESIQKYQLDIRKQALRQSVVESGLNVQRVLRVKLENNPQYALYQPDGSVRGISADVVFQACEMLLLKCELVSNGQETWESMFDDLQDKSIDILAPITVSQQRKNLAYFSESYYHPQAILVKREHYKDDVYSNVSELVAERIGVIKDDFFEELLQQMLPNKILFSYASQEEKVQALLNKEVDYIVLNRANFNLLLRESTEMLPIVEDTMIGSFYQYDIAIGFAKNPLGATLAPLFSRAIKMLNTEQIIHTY

Molecular target: PBPb-I^E56A/R109A/E122A/PBPb-II (Vibrio cholerae, UniProt Q9KT38, E122A/E56A/R109A)
Experiment: ITC, amino acids vs tandem PBPb domains with triple-mutated PBPb-I (probes PBPb-II)
Settings: ITC (iTC200), 20 mM Tris pH 8.0, 150 mM NaCl, 25 °C; protein purified without refolding

With `N[C@@H](CC(=O)O)C(=O)O` [L-aspartate] the Kd was “no measurable binding affinity”.
